Reference: PubChem BioAssay AID2315 (National Center for Advancing Translational Sciences (NCATS), 2010)
“And” between values parts separate entries of the source, which are not always exact repeats. Identical values can stand only once. This is a selection; strong and weak results do not stand in their true shares. The source made the active and inactive calls. No stated cut-off is given here; in the data, active means inhibition mostly above about 28% (no sharp cut-off); inactive means mostly below about 43%.

Assay: A qHTS for Small Molecule Inhibitors of Shiga Toxin; further: 0% is about no effect
Details: Vero cells, Shiga toxin protein synthesis inhibition reporter; at 38.7 µM; hits give high values
With CCC(C)(OOC(C)(C)C)OOC(C)(C)C the inhibition was inactive: -6.33%. For CC(C)C(=O)NC(Sc1ccccc1)C(Cl)(Cl)Cl (configuration not stated), the inhibition was inactive: -11.9%. With O=P(Nc1nccs1)(c1ccccc1)c1ccccc1 the inhibition was inactive: -3.33%. For Nc1ccc([As](=O)(O)c2ccc([N+](=O)[O-])cc2)cc1, the inhibition was inactive: 5.89%. With O=C(OC1CN2CCC1CC2)c1cccc(Cl)c1 (configuration not stated) the inhibition was inactive: -19.1%. In the case of O=[N+]([O-])c1ccc(O)c(/C=N/Nc2ccc([N+](=O)[O-])cc2[N+](=O)[O-])c1, the inhibition is reported as inactive: 0.806%. For CC(=O)NC(SC(=S)N(C)C)C(Cl)(Cl)Cl (configuration not stated), the inhibition was inactive: 12.6%. For O=[As](O)(c1ccccc1)c1ccc(O)cc1, the inhibition was inactive: -4.38%. In the case of C[C@H]1OP(=O)(Oc2ccccc2)[C@H](O)[C@H](O)[C@H]1N=[N+]=[N-] (some centres not stated), the inhibition is reported as inactive: 21.1%. For O=P(Nc1nc2ccccc2s1)(c1ccccc1)c1ccccc1, the inhibition was inactive: 24.5%. For O=P(Nc1ccccn1)(c1ccc(Br)cc1)c1ccc(Br)cc1, the inhibition was inactive: 38.6%. For CN(C)C1(CNC(=O)c2ccc(Cl)c(S(N)(=O)=O)c2)CCCCC1, the inhibition was inactive: -9.76%. With CN(C)C(=O)Oc1noc2ccccc12 the inhibition was inactive: -2.33%. With Cc1ccccc1OP(=O)(Nc1ccccn1)Oc1ccccc1C the inhibition was inactive: -12.3%. For CC(=O)NC(SC(=S)N(CC(C)C)CC(C)C)C(Cl)(Cl)Cl (configuration not stated), the inhibition was inactive: 0%. For Cc1ccc(OP(=O)(Nc2ccccn2)Oc2ccc(C)cc2)cc1, the inhibition was inactive: -10.4%. In the case of COC(=O)c1cc2c(s1)N=C(c1ccccc1)N(C)P2(=O)N1CCOCC1 (configuration not stated), the inhibition is reported as inactive: -2.87%. In the case of CCC(=O)N1C2C3N(C(=O)CC)C1C1N(C(=O)CC)C(C(N1C(=O)CC)N3C(=O)CC)N2C(=O)CC, the inhibition is reported as inactive: -14.2%. For O=C(OC1CN2CCC1CC2)c1ccccc1 (configuration not stated), the inhibition was inactive: -3.52%. In the case of O=C(NC1CCS(=O)(=O)C1)NP(=S)(Oc1ccccc1)Oc1ccccc1 (configuration not stated), the inhibition is reported as inactive: 14.6%. For Cc1ccc(NP(=O)(Oc2cccc(C)c2)Oc2cccc(C)c2)nc1, the inhibition was inactive: -7.74%. For CCOC(=O)NC(Sc1ccccc1)C(Cl)(Cl)Cl (configuration not stated), the inhibition was inactive: 8.64%. For c1ccc(-c2nn[nH]n2)c(-c2nn[nH]n2)c1, the inhibition was inactive: -8.74%. For CC(=O)Nc1ccc(Oc2c([N+](=O)[O-])cc([N+](=O)[O-])cc2[N+](=O)[O-])cc1, the inhibition was inactive: -18%. In the case of CC(=O)Nc1ccc([As](=O)(O)O)c(O)c1, the inhibition is reported as inactive: 14.3%. In the case of CC(=O)c1ccc(N2CC2c2ccncc2)cc1 (configuration not stated), the inhibition is reported as inactive: 15.5%. In the case of C[C@@H]1C=CCP(=O)(Oc2ccccc2)O1 (some centres not stated), the inhibition is reported as inactive: -1.74%. With C[C@H]1OP(=O)(Oc2ccccc2)C[C@@H]2O[C@@H]21 (some centres not stated) the inhibition was inactive: 18.6%. For CC(C)(C)C(=O)NC(Sc1ccccc1)C(Cl)(Cl)Cl (configuration not stated), the inhibition was inactive: -6.03%. In the case of CCOc1ccc(C2=NCC(CBr)S2)cc1 (configuration not stated), the inhibition is reported as inactive: -4.81%. For O=P1(Nc2nc3ccc(Cl)cc3s2)COc2ccccc2O1 (configuration not stated), the inhibition was inactive: 29.3%. With CC(C)CC(=O)NC(Sc1ccc(Cl)cc1)C(Cl)(Cl)Cl (configuration not stated) the inhibition was inactive: -16.3%. In the case of Cc1c2non([O-])c-2c(C)[n+](=O)[n+]1[O-], the inhibition is reported as inactive: 35.7%. For O=C(NC(Sc1ccncn1)C(Cl)(Cl)Cl)c1ccccc1 (configuration not stated), the inhibition was inactive: -10.7%. For Oc1ccccc1CNc1ccccn1, the inhibition was inactive: 67.3%. In the case of Cc1ccc(OP(=O)(Nc2nccs2)Oc2ccc(C)cc2)cc1, the inhibition is reported as inactive: -1.44%. In the case of COc1ccccc1OP(=O)(Nc1ccc(C)cn1)Oc1ccccc1OC, the inhibition is reported as inactive: 3.3%. In the case of Clc1ccc(Cl)c(NC2=NCC(CBr)S2)c1 (configuration not stated), the inhibition is reported as inactive: 2.02%. For CN1CCCC(OC(=O)C(c2ccccc2)c2ccccc2)C1 (configuration not stated), the inhibition was inactive: 9.54%. In the case of NC(=O)c1cc([N+](=O)[O-])cc([N+](=O)[O-])c1N, the inhibition is reported as inactive: 13%. For Cc1ccc(N/C(=N/P(=O)(N2CCOCC2)N2CCOCC2)N2CCOCC2)cc1, the inhibition was inactive: -10.2%. For Nc1cccc2ccc([As](=O)(O)O)cc12, the inhibition was inactive: -6.03%. For Cc1ccc(NP(=O)(Oc2ccccc2F)Oc2ccccc2F)nc1, the inhibition was inactive: 6.66%. For CN(C(=O)Cc1ccc(Cl)c(Cl)c1)[C@H]1CCCC[C@@H]1N1CCCC1, the inhibition was inactive: -5.2%. For CCOP(=O)(Nc1ccccc1)OCC, the inhibition was inactive: -7.45% and inactive: 10.3%. In the case of Cc1cc(SC(NC(=O)c2ccc(F)cc2)C(Cl)(Cl)Cl)ncn1 (configuration not stated), the inhibition is reported as inactive: 11.6%. In the case of O=C(O)c1ccccc1[As](=O)(O)O, the inhibition is reported as inactive: 2.73%. For CC(=O)Nc1ccc([As](=O)(O)O)cc1, the inhibition was inactive: -5.29%. In the case of O=P(Nc1nc2ccc(Cl)cc2s1)(c1ccccc1)c1ccccc1, the inhibition is reported as inactive: 17.6%. In the case of O=[N+]([O-])c1cccc(NC2=NCC(CBr)S2)c1 (configuration not stated), the inhibition is reported as inactive: 21.4%. With O=C(O)CNc1ccc([As](=O)(O)O)cc1 the inhibition was inactive: -6.98%. With CC(C)(C)C(=O)NC(Sc1ccncn1)C(Cl)(Cl)Cl (configuration not stated) the inhibition was inactive: -8.15%. With O=C(Nc1cc([As](=O)(O)O)ccc1O)c1ccccc1 the inhibition was inactive: -3.99%. In the case of CN(C)C(=O)OCCc1n(C)cc[n+]1C, the inhibition is reported as inactive: 7.22%. With CC1CCN(C(=O)Oc2c(Cl)cc(Cl)c3cccnc23)CC1 the inhibition was inactive: 25.9%. With CC(=O)C1=CCCC2CCC1N2 (configuration not stated) the inhibition was inactive: 2.45%. For Nc1ccc([As](=O)(O)c2ccc(N)cc2)cc1, the inhibition was inactive: 1.27%. With CCN(/C(=N/P(=O)(N1CCOCC1)N1CCOCC1)N1CCOCC1)c1ccc(OC)cc1 the inhibition was inactive: -4.06%. In the case of O=[N+]([O-])c1cccc2n[nH]nc12, the inhibition is reported as inactive: -44.8%. In the case of CC(=O)N1C2C3N(C(C)=O)C1C1N(C(C)=O)C(C(N1C(C)=O)N3C(C)=O)N2C(C)=O, the inhibition is reported as inactive: -3.66%. In the case of Cc1ccc(NP(=O)(Oc2ccccc2)Oc2ccccc2)nc1, the inhibition is reported as inactive: 5.38%. With COc1ccc(C2=NCC(CBr)S2)cc1 (configuration not stated) the inhibition was inactive: 6.46%.
